Paper PMC4552634, “A New Set of Chemical Starting Points with Plasmodium falciparum Transmission-Blocking Potential for Antimalarial Drug Discovery” (PLoS ONE, 2015)

System: P. falciparum stage V gametocytes
Details: 48 h, 5 µM; inhibitor

## CC(C)(C)c1cc2cc(N(C(=O)c3ccc(C(F)(F)F)cc3)C3CCN(Cc4ccccc4)CC3)ccc2[nH]1
  % Inhibition: -2.684%

Only a part of the results on these compounds is given; other tests are left out.
